Laboratory results as given in paper PMC2834670.
Construct, isoform or probe ends are uncertain for at least one entry. Where a protein sequence is shown, tags need not be part of it.

Target: T1, MleR (UniProt Q8DWC9)
T1 sequence (looked up, limits assumed): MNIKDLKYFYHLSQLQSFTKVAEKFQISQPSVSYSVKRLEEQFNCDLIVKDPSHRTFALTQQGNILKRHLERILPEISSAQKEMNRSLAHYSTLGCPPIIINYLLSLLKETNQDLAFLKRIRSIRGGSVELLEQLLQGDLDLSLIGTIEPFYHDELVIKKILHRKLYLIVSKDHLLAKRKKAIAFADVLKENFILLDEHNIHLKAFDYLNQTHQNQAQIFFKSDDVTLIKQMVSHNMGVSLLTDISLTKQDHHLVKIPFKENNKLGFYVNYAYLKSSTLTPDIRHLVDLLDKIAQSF
Experiment: EMSA
Conditions: one complex, 20 mM Tris pH 7.5, 100 mM KCl, 2 mM EDTA, 10% glycerol, ~100 ng MleR, equal amount of competitor DNA (EP10/11 at 75 ng/ul), 20 min ambient temperature, recombinant protein, protein details: N-terminal 6His (pET28c, NdeI/NheI), label: none (SYBR Gold stain), probe letters rebuilt from the primers and the genome

“AACCTATCATCGGCAAGCACAAGGCATCAGCCAAGAAAGTTTGTCTGAAAAAGCTGGATTAGGATTGAAATATATCAATCAGATTGAAAATCAAAACCATAATCTCAGCTTGCAGACGCTTGAAAAAGTGATTGAAGCACTAGGTATGACACCGGAAGATTTTTTTGACTTTAACAGTCTTGCCATGGAAATTT (double strand) [EMSA 4 fragment (EP6-7)]”: binds (5 mM L-malate); binds (no L-malate).
